Assay results: US12492189B2, “Solid forms of an HIV capsid inhibitor” (Gilead Sciences, Inc., priority 2017, dated 2025)

Tested on: MT4 cells
Assay: Test B: Cytotoxicity Assay (uninfected cells)
Type: cell-based
Details: 5 days, CellTiter-Glo

Cn1nc(NS(C)(=O)=O)c2c(Cl)ccc(-c3ccc(C#CC(C)(C)O)nc3[C@H](Cc3cc(F)cc(F)c3)NC(=O)Cn3nc(C(F)F)c4c3C(F)(F)[C@@H]3C[C@H]43)c21 [Compound A]
CC50: 21.8 µM

Cn1nc(NS(C)(=O)=O)c2c(Cl)ccc(-c3ccc(C#CC(C)(C)O)nc3[C@H](Cc3cc(F)cc(F)c3)NC(=O)Cn3nc(C(F)(F)F)c4c3C(F)(F)[C@@H]3C[C@H]43)c21 [Compound B, reference compound]
CC50: 14.5 µM
